Measured values taken from article PMC12432892, “Therapeutic applications of interface-mimicking peptides for targeting the SARS-CoV-2 NSP12-NSP8 RdRp complex” (Molecular Therapy, 2025).

Molecular target: SARS-CoV-2 NSP12 (SARS-CoV-2), P0DTD1

Row | Binder | IC50 of inhibition of SARS-CoV-2 RdRp activity in the cell-based minigenome (luciferase) assay; pair blocked: NSP12-NSP8
1 | ARDGCVPLNIIPLTTAAKLMVVIPD (modifications not checked) [N8-PepβD] | 31.2 µM
2 | LNNIINNARDGCVPLNIIPLTTAAKLMVV (modifications not checked) [N8-Pepβ] | 58 µM
